Data taken from patent US10316099.

What was measured:
[1] = biological target: huPrP23-231 (human prion protein, residues 23 to 231) (human)
[2] = biological target: huPrP23-231 (human prion protein, residues 23 to 231) (human); remark: listed apart in the source
[3] = biological target: huPrP23-231 (human prion protein, residues 23 to 231) (human); remark: listed apart in the source

ICSM-35 showed a Kd [1] of 10 nM, a Ki [1] of 20 nM and an IC50 [2] of 10400 nM. The EC50 (read off the curve) [3] was 6 nM.
